Measurements from paper PMC10384657 (Virus Research, 2023).

Assay: general procedure: Fmoc solid-phase peptide synthesis; Tentagel S RAM resin (loading 0.23 mmol/g); DIC/OxymaPure
Conditions: whole synthesis, 215 nm

^888FGAGAALQIPAAMQMAYRF^906
final HPLC purity: >95%

^890AGAALQIPFAMQMAYRF^906
final HPLC purity: >95%

^888FGAGAALQIPFAMQMAARF^906
final HPLC purity: 95%

^894LQIPFAMQMAYRF^906
final HPLC purity: >95%

^888FGAGAALAIPFAMQMAYRF^906
final HPLC purity: >95%

^888AGAGAALQIPFAMQMAYRF^906
final HPLC purity: >95%

^888FGAGAAAQIPFAMQMAYRF^906
final HPLC purity: >95%

^888FGAGAALQIPFAMAMAYRF^906
final HPLC purity: 95%

^888FGAGAALQAPFAMQMAYRF^906
final HPLC purity: >95%

^898FAMQMAYRF^906
final HPLC purity: >95%

^888FGAGAALQIPFAMQMAYRA^906
final HPLC purity: >95%

^884SGWTFGAGAALQIPFAM^900
final HPLC purity: 90%

^888FGAGAALQIPFAAQMAYRF^906
final HPLC purity: >95%

^888FGAGAALQIPFAMQMAAAF^906
final HPLC purity: 93%

^888FGAGAALQIPFAMQAAYRF^906
final HPLC purity: 93%

^888FGAGAALQIPFAMQM^902
final HPLC purity: >95%

^886WTFGAGAALQIPFAMQMAY^904
final HPLC purity: >95%

^888FGAGAALQIPFAMQMAYRF^906
final HPLC purity: 95%

^888FGAGAALQIAFAMQMAYRF^906
final HPLC purity: 90%

^884SGWTFGAGAALQIPFAMQM^902
final HPLC purity: >95%
